In patent US7030150B2, “Benzimidazole compounds and antiviral uses thereof” (Trimeris, Inc., priority 2001, dated 2006):

System: RSV
Experiment: RSV plaque reduction (PRA) / syncytia formation antiviral assay in Hep2 cells
Type: cell-based, Respiratory Syncytial Virus
Details: for Selective Index: ratio CC50/IC50, Tables 1-7; for SI: ratio CC50/IC50, Table 8

| SMILES | Selective Index | SI |
| --- | --- | --- |
| OCCOCCN1CCN(Cc2nc3ccccc3n2Cc2nc3ccccc3[nH]2)CC1 [compound 216] | 47 | – |
| Clc1cccc(CNCc2nc3ccccc3n2Cc2nc3ccccc3[nH]2)c1 [compound 157] | 172 | – |
| N#CCc1ccc2c(c1)nc(CN1CCOCC1)n2Cc1nc2ccccc2[nH]1 [compound 246] | – | 330 |
| C=C(C)CN(CC)Cc1nc2ccccc2n1Cc1nc2ccccc2[nH]1 [compound 89] | 1470.6 | – |
| COc1cc2c(cc1OC)C(CC#N)N(Cc1nc3ccccc3n1Cc1nc3ccccc3[nH]1)CC2 (centres unmarked) [compound 223] | 24.4 | – |
| CCCN(Cc1nc2ccccc2n1Cc1ccccn1)CC1CC1 [compound 27] | 179 | – |
| ClCc1nc2ccccc2n1Cc1nc2ccccc2[nH]1 [compound 1] | 9.69 | – |
| O=C(O)c1ccc2nc(CN3CCOCC3)n(Cc3nc4ccccc4[nH]3)c2c1 [compound 269] | – | 30 |
| Cc1nc(Cn2c(CN(C(C)C)C3CCCCC3)nc3ccccc32)cs1 [compound 2] | 21.93 | – |
| NNC(=O)c1ccc2c(c1)nc(CN1CCOCC1)n2Cc1nc2ccccc2[nH]1 [compound 248] | – | 13 |
| O=C1C(=O)N(Cc2nc3ccccc3n2Cc2nc3ccccc3[nH]2)c2ccc([N+](=O)[O-])cc21 [compound 236] | 12.5 | – |
| CC(C)N(Cc1nc2ccccc2n1Cc1nc2ccccc2[nH]1)CC(O)c1ccc(O)c(O)c1 (centres unmarked) [compound 107] | 1886.8 | – |
| CS(=O)(=O)c1ccc(Cn2c(CN3CCCCC3)nc3ccccc32)cc1 [compound 60] | 67 | – |
| CCCN(Cc1nc2ccccc2n1Cc1cccc(Oc2ccccc2)c1)CC1CC1 [compound 25] | 56 | – |
| FC(F)(F)c1cnc(N2CCCN(Cc3nc4ccccc4n3Cc3nc4ccccc4[nH]3)CC2)c(Cl)c1 [compound 215] | 66.7 | – |
| CC(C)N(Cc1nc2ccccc2n1Cc1cccc(Oc2ccccc2)c1)C1CCCCC1 [compound 12] | 51 | – |
| CC(C)N(C)Cc1nc2ccccc2n1Cc1nc2ccccc2[nH]1 [compound 82] | 1388.9 | – |
| c1ccc2[nH]c(Cn3c(CN4CCC4)nc4ccccc43)nc2c1 [compound 200] | 54.3 | – |
| OCC1CCCCN1Cc1nc2ccccc2n1Cc1nc2ccccc2[nH]1 (centres unmarked) [compound 210] | 32 | – |
| COCCOCCOCCOCc1ccc2c(c1)nc(CN1CCOCC1)n2Cc1nc2ccccc2[nH]1 [compound 253] | – | 13 |
| FC(F)(F)Oc1ccc(CNCc2nc3ccccc3n2Cc2nc3ccccc3[nH]2)cc1 [compound 115] | 500 | – |

| SMILES | Selective Index | SI |
| --- | --- | --- |
| c1cncc(Cn2c(CN3CCCCC3)nc3ccccc32)c1 [compound 57] | 59 | – |
| c1ccc2c(c1)CCN(Cc1nc3ccccc3n1Cc1nc3ccccc3[nH]1)C2 [compound 206] | 35.7 | – |
| COc1ccc(N2CCN(Cc3nc4ccccc4n3Cc3nc4ccccc4[nH]3)CC2)cc1 [compound 197] | 3000 | – |
| Cc1ccccc1C(=O)n1c(CN2CCCCC2)nc2ccccc21 [compound 53] | 12.99 | – |
| COC(=O)c1ccc2nc(CN3CCOCC3)n(Cc3nc4ccccc4[nH]3)c2c1.Cl [compound 270] | – | 10000 |
| Clc1ccccc1N1CCN(Cc2ccc3c(c2)nc(CN2CCOCC2)n3Cc2nc3ccccc3[nH]2)CC1.O=C(O)C(F)(F)F [compound 255] | – | 47 |
| OCCNCc1nc2ccccc2n1Cc1nc2ccccc2[nH]1 [compound 117] | 769 | – |
| c1ccc(C(CNCc2nc3ccccc3n2Cc2nc3ccccc3[nH]2)c2ccccc2)cc1 [compound 132] | 116 | – |
| COC(=O)CN(C)Cc1nc2ccccc2n1Cc1nc2ccccc2[nH]1 [compound 95] | 12.8 | – |
| c1ccc2[nH]c(Cn3c(CNC4CC5CCC4C5)nc4ccccc43)nc2c1 (centres unmarked) [compound 119] | 909 | – |
| Fc1ccc(CNCc2nc3ccccc3n2Cc2nc3ccccc3[nH]2)cc1 [compound 126] | 26 | – |
| CCCN(Cc1nc2ccccc2n1Cc1ccc2ccccc2n1)CC1CC1 [compound 20] | 15.38 | – |
| c1ccc2[nH]c(Cn3c(CN4CCC5CCCCC5C4)nc4ccccc43)nc2c1 (centres unmarked) [compound 234] | 60 | – |
| COc1ccccc1CCNCc1nc2ccccc2n1Cc1nc2ccccc2[nH]1 [compound 175] | 278 | – |
| CC(C)N(Cc1nc2ccccc2n1Cc1ccc(S(C)(=O)=O)cc1)C1CCCCC1 [compound 13] | 111 | – |
| CCCCCCN(C)Cc1nc2ccccc2n1Cc1nc2ccccc2[nH]1 [compound 88] | 666.7 | – |
| CCN1CCN(Cc2nc3ccccc3n2Cc2nc3ccccc3[nH]2)CC1 [compound 230] | 20.8 | – |
| CCCN(Cc1nc2ccccc2n1Cc1c2ccccc2nc2ccccc12)CC1CC1 [compound 23] | 56 | – |
| Clc1ccc(CNCc2nc3ccccc3n2Cc2nc3ccccc3[nH]2)cc1Cl [compound 171] | 62 | – |
| COc1cccc(CCNCc2nc3ccccc3n2Cc2nc3ccccc3[nH]2)c1 [compound 135] | 244 | – |
| C#CCCN(C)Cc1nc2ccccc2n1Cc1nc2ccccc2[nH]1 [compound 94] | 12.3 | – |

| SMILES | Selective Index | SI |
| --- | --- | --- |
| c1ccc(CN2CCC(NCc3nc4ccccc4n3Cc3nc4ccccc4[nH]3)CC2)cc1 [compound 137] | 365 | – |
| CN(Cc1nc2ccccc2n1Cc1nc2ccccc2[nH]1)CC(O)c1ccc(O)cc1 (centres unmarked) [compound 97] | 592.3 | – |
| CNCc1nc2ccccc2n1Cc1nc2ccccc2[nH]1 [compound 164] | 125 | – |
| c1ccc2[nH]c(Cn3c(CN4CCC(C5CCNCC5)CC4)nc4ccccc43)nc2c1 [compound 217] | 14.1 | – |
| c1ccc(CCNCc2nc3ccccc3n2Cc2nc3ccccc3[nH]2)nc1 [compound 125] | 323 | – |
| c1csc(CCNCc2nc3ccccc3n2Cc2nc3ccccc3[nH]2)c1 [compound 130] | 476 | – |
| CN1CCN(CCCNCc2nc3ccccc3n2Cc2nc3ccccc3[nH]2)CC1 [compound 112] | 143 | – |
| O=C1C(=O)N(Cc2nc3ccccc3n2Cc2nc3ccccc3[nH]2)c2ccc(Br)cc21 [compound 235] | 18.5 | – |
| CN(Cc1ccco1)Cc1nc2ccccc2n1Cc1nc2ccccc2[nH]1 [compound 85] | 217.4 | – |
| CCCN(Cc1nc2ccccc2n1Cc1ccc(S(C)(=O)=O)cc1)CC1CC1 [compound 26] | 83 | – |
| c1ccc(CCCCNCc2nc3ccccc3n2Cc2nc3ccccc3[nH]2)cc1 [compound 118] | 594 | – |
| c1csc(CNCc2nc3ccccc3n2Cc2nc3ccccc3[nH]2)c1 [compound 142] | 63 | – |
| CCCN(Cc1nc2ccccc2n1Cc1ccc(Cl)cc1Cl)CC1CC1 [compound 22] | 11.11 | – |
| N=C(N)NCc1nc2ccccc2n1Cc1nc2ccccc2[nH]1 [compound 104] | 12.5 | – |
| FC(F)(F)c1cccc(N2CCN(Cc3nc4ccccc4n3Cc3nc4ccccc4[nH]3)CC2)c1 [compound 219] | 769.2 | – |
| O=CN1CCN(Cc2nc3ccccc3n2Cc2nc3ccccc3[nH]2)CC1 [compound 218] | 1000 | – |
| COCCCNCc1nc2ccccc2n1Cc1nc2ccccc2[nH]1 [compound 116] | 741 | – |
| c1ccc2c(c1)CCC2NCc1nc2ccccc2n1Cc1nc2ccccc2[nH]1 (centres unmarked) [compound 144] | 56 | – |
| FC(F)(F)c1ccc(N2CCN(Cc3nc4ccccc4n3Cc3nc4ccccc4[nH]3)CC2)nc1 [compound 196] | 7600 | – |
| Oc1ccc(N2CCN(Cc3nc4ccccc4n3Cc3nc4ccccc4[nH]3)CC2)cc1 [compound 220] | 666.7 | – |
| O=C(O)C(F)(F)F.c1ccc2[nH]c(Cn3c(CN4CCOCC4)nc4cc(CN5CCOCC5)ccc43)nc2c1 [compound 260] | – | 13 |

| SMILES | Selective Index | SI |
| --- | --- | --- |
| COC(=O)c1ccc2[nH]c(CCl)nc2c1 [compound 5] | 11.88 | – |
| NC(=O)CNC(=O)c1ccc2c(c1)nc(CN1CCOCC1)n2Cc1nc2ccccc2[nH]1 [compound 267] | – | 13 |
| CCCCN(CC)Cc1nc2ccccc2n1Cc1nc2ccccc2[nH]1 [compound 92] | 715.8 | – |
| C1=CCN(Cc2nc3ccccc3n2Cc2nc3ccccc3[nH]2)C1 [compound 201] | 292.3 | – |
| FC(F)(F)Oc1ccccc1Cn1c(CN2CCCCC2)nc2ccccc21 [compound 62] | 26 | – |
| c1ccc2[nH]c(Cn3c(CNC4CCCCC4)nc4ccccc43)nc2c1 [compound 165] | 57 | – |
| c1ccc2[nH]c(Cn3c(CNCCCN4CCCC4)nc4ccccc43)nc2c1 [compound 147] | 345 | – |
| CC(C)(C)OC(=O)n1c(CCl)nc2ccccc21 [compound 8] | 91 | – |
| O=C1CCC(=O)N1Cc1nc2ccccc2n1Cc1nc2ccccc2[nH]1 [compound 225] | 12.5 | – |
| O=C(c1ccco1)N1CCN(Cc2nc3ccccc3n2Cc2nc3ccccc3[nH]2)CC1 [compound 198] | 3300 | – |
| CC(C)N(Cc1ccccc1)Cc1nc2ccccc2n1Cc1ccccn1 [compound 41] | 85 | – |
| OCCC1CCCCN1Cc1nc2ccccc2n1Cc1nc2ccccc2[nH]1 (centres unmarked) [compound 213] | 5882.4 | – |
| CCCN(Cc1nc2ccccc2n1Cc1cc(F)cc2c1OCOC2)CC1CC1 [compound 24] | 96 | – |
| Clc1ccc(CNCc2nc3ccccc3n2Cc2nc3ccccc3[nH]2)cc1Cl [compound 138] | 7 | – |
| Clc1ccccc1CNCc1nc2ccccc2n1Cc1nc2ccccc2[nH]1 [compound 150] | 77 | – |
| CCCNCc1nc2ccccc2n1Cc1nc2ccccc2[nH]1 [compound 128] | 833 | – |
| O=C1C(=O)N(Cc2nc3ccccc3n2Cc2nc3ccccc3[nH]2)c2ccc(F)cc21 [compound 237] | 11.4 | – |
| CC1CCCCN1CCCNCc1nc2ccccc2n1Cc1nc2ccccc2[nH]1 (centres unmarked) [compound 160] | 46 | – |
| c1ccc(CC2=NCCN2Cc2nc3ccccc3n2Cc2nc3ccccc3[nH]2)cc1 [compound 204] | 58.8 | – |
| Clc1ccc(CCNCc2nc3ccccc3n2Cc2nc3ccccc3[nH]2)cc1 [compound 163] | 36 | – |
